The Kd is the constant that tells how readily two partners part at equilibrium. A high value points to lower affinity.

Here are results for one molecule from publication PMC6484134 (The Journal of Biological Chemistry, 2019).

Assay [1] deals with T1, Cul3N (human Cul3 N-terminal domain, residues 1–388, I342R L346D) (human, UniProt Q13618 1-388, I342R | L346D).
T1 construct: also called Cul3–NTD
In words: ITC. To be noted: both partners purified.

Assay [2] deals with T2, Cul3NΔ22 (human Cul3 N-terminal domain, residues 23–388, I342R L346D) (human, UniProt Q13618 23-388, I342R | L346D).
T2 construct: also called Cul3–NTD; Cu3NΔ22
In words: ITC. To be noted: both partners purified.

B1: KLHL3-BB (human KLHL3 BTB-BACK domain, residues 24–276) (domain or fragment, UniProt Q9UH77 24-276, looked up)
chain: RTITVNPAHMGKAFKVMNELRSKQLLCDVMIVAEDVEIEAHRVVLAACSPYFCAMFTGDMSESKAKKIEIKDVDGQTLSKLIDYIYTAEIEVTEENVQVLLPAASLLQLMDVRQNCCDFLQSQLHPTNCLGIRAFADVHTCTDLLQQANAYAEQHFPEVMLGEEFLSLSLDQVCSLISSDKLTVSSEEKVFEAVISWINYEKETRLEHMAKLMEHVRLPLLPRDYLVQTVEEEALIKNNNTCKDFLIEAMKYH
Turning to B1, the dissociation constant (Kd) in assay [1] amounted to 17 nM; in assay [2], 52.8 nM. Further, the dH in assay [1] was -24.9 kcal/mol.
